# Biological target: Aβ oligomers (from synthetic Aβ1–42), not stated, P05067 672-713
substance,measurement,value
human prion protein 23–231 labeled with NBD at position 149 NBD (from IANBD ester) on the cysteine introduced at position 149,result,binds
human prion protein 23–231 labeled with NBD at position 198 NBD (from IANBD ester) on the cysteine introduced at position 198,result,binds
human prion protein 23–231 labeled with NBD at position 145 NBD (from IANBD ester) on the cysteine introduced at position 145,result,binds
human prion protein 23–231 labeled with NBD at position 218 NBD (from IANBD ester) on the cysteine introduced at position 218,result,binds
human prion protein 23–231 labeled with NBD at position 31 NBD (from IANBD ester) on the cysteine introduced at position 31,result,binds
human prion protein 23–231 labeled with NBD at position 99 NBD (from IANBD ester) on the cysteine introduced at position 99,result,binds
